Measurements reported in PubChem BioAssay AID1259414 (Drosophila RNAi Screening Center, 2018).
The screen tested about 24,000 reagents; this is an unselected part of those with a known target gene and a result. Over the whole deposit, about 1,210 (5%) are marked active. 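Inactive calls also include excluded dsRNAs with several or no targets, genes unexpressed in JW18, and well A1, regardless of score.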 A number with no mark means an inactive call. A plus sign joins genes that one reagent is predicted to hit.

Assay: 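Host factors increasing or decreasing Wolbachia levels in cultured fly cells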 (primary screen)
Cells: Drosophila JW18 cells infected with Wolbachia
Knock-down reagent: long dsRNA against Drosophila genes, 0.25 µg dsRNA per well of a 384-well plate
Duration: 5 days
Conditions: cells persistently infected with Wolbachia before knock-down; no added drug
Detection: 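Automated imaging of bacterial rRNA staining divided by host cell count, reported as plate-normalised robust z-score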
Direction: Wolbachia per cell robust z: higher = more Wolbachia per host cell than the plate typical
Call rule: 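Active if absolute robust z reaches 1.5 in two or more of three replicates, leaving out multi- or no-target dsRNAs, genes unexpressed in JW18 and A1 wells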

no.	target gene	DRSC id	Wolbachia per cell robust z, rep 1	Wolbachia per cell robust z, rep 2	Wolbachia per cell robust z, rep 3
1	CG34033 (GeneID 3885602)	DRSC38882	-0.297	-1.08	1.56
2	wde (GeneID 36133)	DRSC05955	0.888	0.172	1.04
3	dpr9 (GeneID 2768670)	DRSC14534	0.705	1.23	0.774
4	dpr9 (GeneID 2768670)	DRSC14985	-4.54	0.719	-0.719
5	dpr9 (GeneID 2768670)	DRSC14986	1.34	-0.195	0.406
6	dpr9 (GeneID 2768670)	DRSC25267	0.703	0.298	-0.309
7	CG8578 (GeneID 32540)	DRSC20114	-4.03 (active)	-1.74	2.04
8	CG10713 (GeneID 39508)	DRSC09786	-1.56	0.953	0.376
9	CG10713 (GeneID 39508)	DRSC24532	0.253	-0.12	-0.985
10	mTerf3 (GeneID 40279)	DRSC11759	-2.01	-0.235	0.0643
11	SuUR (GeneID 45739)	DRSC11292	0.119	-1.28	-0.7
12	SuUR (GeneID 45739)	DRSC41540	0.103	-2.36	0.583
13	CG14191 (GeneID 32893)	DRSC19546	0.00363	0.316	0.0664
14	CG14191 (GeneID 32893)	DRSC25317	0.246	-0.859	-0.723
15	Scamp (GeneID 32470)	DRSC20286	0.933	0.437	0.0934
16	Scamp (GeneID 32470)	DRSC29752	-8.9 (active)	0.424	-2.99
17	Cpr78Ca (GeneID 40352)	DRSC11651	-1.49	-1.58	-0.00626
18	LanB2 (GeneID 39118)	DRSC11208	-0.378	0.215	-0.51
19	asRNA:CR30267 + CG42260	DRSC29385	0.281	0.716	0.961
20	Gug (GeneID 46156)	DRSC11179	-2.47	-0.206	0.0435
21	Gug (GeneID 46156)	DRSC40848	-0.539	0.493	-1.8
22	achi (GeneID 36373)	DRSC07276	-4.83	0.687	0.605
23	achi (GeneID 36373)	DRSC24803	0.441	-4.08	-1
24	Grip128 (GeneID 32478)	DRSC20167	-0.0311	-0.533	0.703
25	Tpst (GeneID 32312)	DRSC18989	0.512	0.369	-0.885
26	Tpst (GeneID 32312)	DRSC19696	-1.9	-1.02	-0.0143
27	Tpst (GeneID 32312)	DRSC19723	0.755	0.763	-0.61
28	Tpst (GeneID 32312)	DRSC24990	-2.68	-7.36	-11.8
29	Tpst (GeneID 32312)	DRSC25122	0.837	0.358	-2.74
30	Tpst (GeneID 32312)	DRSC25422	0.0205	0.306	-1.35
31	Mrm2 (GeneID 42359)	DRSC14310	-0.227	-0.359	-0.0783
32	Mrm2 (GeneID 42359)	DRSC27849	0.906	-0.551	-2.35
33	Axs + sing	DRSC19333	0.321	1.18	0.798
34	CheA7a (GeneID 31672)	DRSC17965	-2.61	-1.92	-4.12
35	CG9759 (GeneID 41661)	DRSC16558	0.51	-0.794	0.52
36	CG9759 (GeneID 41661)	DRSC26341	1.68	-4.67	-4.75
37	Mi-2 + Su(Tpl)	DRSC09640	0.353	0.654	0.0973
38	CG30377 (GeneID 50252)	DRSC06477	0.4	1.12	0.107
39	CG30377 (GeneID 50252)	DRSC25708	-0.19	1.03	-1.03
40	CG17198 (GeneID 43110)	DRSC41319	-1.3	0.868	0.753
41	CG13321 (GeneID 36430)	DRSC06358	-7.11	-3.08	-0.226
42	CG13321 (GeneID 36430)	DRSC27458	0.275	-0.151	-1.79
43	GstE13 (GeneID 35928)	DRSC06083	1.51 (active)	1.91	0.428
44	CG13531 (GeneID 37627)	DRSC04173	-0.464	-2.63	-0.942
45	PCID2 (GeneID 39306)	DRSC10822	-0.085	0.568	0.888
46	PCID2 (GeneID 39306)	DRSC29290	0.906	0.641	-1.06

Entries listed so far whose gene name starts with P or p:
target gene	DRSC id	Wolbachia per cell robust z, rep 1	Wolbachia per cell robust z, rep 2	Wolbachia per cell robust z, rep 3
PCID2 (GeneID 39306)	DRSC10822	-0.085	0.568	0.888
PCID2 (GeneID 39306)	DRSC29290	0.906	0.641	-1.06
